Anti-infective test results gathered from many reports (values: NIAID ChemDB through PubChem).

All rows: tests on isolated targets; species: HIV-1; protein: Protease; read by: HPLC; measure: IC50

ICn is the concentration giving n% inhibition. Blank or dashed fields: not listed here. Neighbouring rows are from separate reports. a–b is a range or a potency band.

{"compound": "CC(C)(C)OC(=O)N[C@@H](Cc1ccccc1)[C@H](O)CNC[C@@H](O)[C@H](Cc1ccccc1)NC(=O)C1NC(=O)CC1(C)C", "setting": "pH 5.5", "value": "<10 µM"}
{"compound": "CC(C)CN(C[C@@H](O)[C@H](Cc1ccccc1)NC(=O)[C@H](CC(N)=O)NC(=O)c1ccc2ccccc2n1)C(=O)NC(C)(C)C", "changes": "PR-V82A", "value": "0.0022 µM"}
{"compound": "CC(C)(C)OC(=O)N[C@@H](Cc1ccccc1)[C@H](O)CNC[C@@H](O)[C@H](Cc1ccc(OCCc2ccccn2)cc1)NC(=O)OC(C)(C)C", "setting": "pH 5.5", "value": "<10 µM"}
{"compound": "CC(C)(C)OC(=O)N[C@@H](Cc1ccccc1)[C@H](O)CNC[C@@H](O)[C@H](Cc1ccc(OCC(=O)N2CCOCC2)cc1)NC(=O)OC(C)(C)C", "changes": "PR-V82A", "value": "1.08 µM"}
{"compound": "CC(C)c1ccccc1SC1=C(O)CC(CCC(=O)N2CCSCC2)(c2ccccc2)OC1=O", "setting": "pH 4.7", "value": "1.103 µM"}
{"compound": "CC(C)[C@H](NC(=O)[C@@H](O)Cc1ccccc1)C(=O)N[C@@H](Cc1ccccc1)[C@H](O)CNC[C@@H](O)[C@H](Cc1ccccc1)NC(=O)OC(C)(C)C", "setting": "pH 5.5", "value": "<10 µM"}
{"compound": "CC(C)(C)OC(=O)N[C@@H](Cc1ccccc1)[C@@H](O)C[C@@H](C/C=C/c1ccccc1)C(=O)N[C@H](C(=O)NCCO)c1ccccc1", "value": "0.0001–0.01 µM"}
{"compound": "CC(C)c1ccccc1SC1=C(O)CC(CCCC(=O)N2CCN(C(=O)OC(C)(C)C)CC2)(c2ccccc2)OC1=O", "setting": "pH 4.7", "value": "0.124 µM"}
{"compound": "Nc1c(N=Nc2ccc([N+](=O)[O-])cc2)c(S(=O)(=O)O)cc2cc(S(=O)(=O)O)c(N=Nc3ccccc3)c(O)c12", "value": "7 µM"}
{"compound": "CC(C)[C@H](NC(=O)OC(C)(C)C)C(=O)N[C@@H](Cc1ccccc1)[C@H](O)CNC[C@@H](O)[C@H](Cc1ccccc1)NC(=O)[C@@H](NC(=O)OC(C)(C)C)C(C)C", "setting": "pH 5.5", "value": ">10 µM"}
{"compound": "CC(C)C[C@H](NC(=O)[C@H](Cc1ccccc1)C[C@H](O)[C@H](Cc1ccccc1)NC(=O)OC(C)(C)C)C(=O)NCCOP(=O)(O)O", "value": "0.0001–0.01 µM"}
{"compound": "Cc1cc(NC(=O)Nc2ccc(N=Nc3cc(S(=O)(=O)O)c4cccc(S(=O)(=O)O)c4c3)c(C)c2)ccc1N=Nc1cc(S(=O)(=O)O)c2cccc(S(=O)(=O)O)c2c1", "value": "20 µM"}
{"compound": "CC(C)c1ccccc1SC1=C(O)CC(CCCC(=O)N(C)CCc2ccccc2)(c2ccccc2)OC1=O", "setting": "pH 4.7", "value": "0.216 µM"}
{"compound": "CC(C)C[C@H](NC(=O)[C@H](Cc1ccccc1)[C@H](O)[C@H](O)[C@H](Cc1ccccc1)NC(=O)OC(C)(C)C)C(=O)N[C@@H](Cc1ccccc1)C(N)=O", "value": "0.0001–0.01 µM"}
{"compound": "CC(C)(C)OC(=O)N[C@@H](Cc1ccccc1)[C@H](O)CNC[C@@H](O)[C@H](Cc1ccccc1)NC(=O)C(O)C(F)(F)F", "setting": "pH 5.5", "value": "<10 µM"}
{"compound": "C/C=C(/C)C(=O)O[C@H]1[C@H](O)C(C)(C)C[C@H]2C3=CC[C@@H]4[C@@]5(C)CC[C@H](O[C@@H]6O[C@H](C(=O)O)[C@@H](O[C@@H]7O[C@H](CO)[C@@H](O)[C@H](O)[C@H]7O)[C@H](O)[C@H]6O[C@@H]6O[C@H](CO)[C@@H](O)[C@H](O)[C@H]6O)[C@](C)(CO)[C@@H]5CC[C@@]4(C)[C@]3(C)C[C@@H](O)[C@]21COC(C)=O", "value": ">100 µM"}
{"compound": "CC(C)(C)NC(=O)N[C@@H](Cc1ccccc1)[C@H](O)CNC[C@@H](O)[C@H](Cc1ccccc1)NC(=O)NC(C)(C)C", "setting": "pH 5.5", "value": "<10 µM"}
{"compound": "C/C=C(\\C)C(=O)OC[C@@]12[C@H](O)C[C@]3(C)C(=CC[C@@H]4[C@@]5(C)CC[C@H](O[C@@H]6O[C@H](C(=O)O)[C@@H](O[C@@H]7O[C@H](CO)[C@@H](O)[C@H](O)[C@H]7O)[C@H](O)[C@H]6O[C@@H]6O[C@H](CO)[C@@H](O)[C@H](O)[C@H]6O)[C@](C)(CO)[C@@H]5CC[C@]43C)[C@@H]1CC(C)(C)[C@@H](O)[C@@H]2O", "value": ">100 µM"}
{"compound": "CC(C)(C)OC(=O)N[C@@H](Cc1ccc(O)cc1)[C@@H](O)C[C@@H](Cc1ccc(O)cc1)C(=O)N[C@H]1c2ccccc2C[C@H]1O", "value": "0.0001–0.01 µM"}
{"compound": "CC(C)(C)OC(=O)N[C@@H](Cc1ccccc1)[C@H](O)CNC[C@@H](O)[C@H](Cc1cccc(O)c1)NC(=O)OC(C)(C)C", "setting": "pH 5.5", "value": "<10 µM"}
{"compound": "CC(C)(C)OC(=O)N[C@@H](Cc1ccccc1)[C@@H](O)C[C@@H](Cc1ccccc1)C(=O)N[C@H]1c2ccccc2OC[C@H]1O", "value": "0.0001–0.01 µM"}
{"compound": "CC(=O)Nc1ccc2cc(S(=O)(=O)O)c(N=Nc3ccc(S(=O)(=O)CCOS(=O)(=O)O)cc3)c(O)c2c1", "value": "23 µM"}
{"compound": "CC(C)(C)OC(=O)N1Cc2ccccc2C[C@H]1[C@H](O)CNC[C@H](O)[C@@H]1Cc2ccccc2CN1C(=O)OC(C)(C)C", "setting": "pH 5.5", "value": ">10 µM"}
{"compound": "CC(C)C[C@H](NC(=O)[C@H](Cc1ccccc1)C[C@H](O)[C@H](Cc1ccccc1)NC(=O)OC(C)(C)C)C(=O)NCc1ccccc1", "value": "0.0014 µM"}
{"compound": "CC(C)(C)NC(=O)[C@@H]1CN(Cc2cnc3occc3c2)CCN1C[C@@H](O)C[C@@H](Cc1ccccc1)C(=O)N[C@H]1c2ccccc2C[C@H]1O", "value": "0.00027 µM"}
{"compound": "CC(C)c1ccccc1SC1=C(O)CC(CCC(=O)N2CCNCC2)(c2ccccc2)OC1=O", "setting": "pH 4.7", "value": "1.106 µM"}
{"compound": "CCN(Cc1cccc(S(=O)(=O)[O-])c1)c1ccc(C(=C2C=CC(=[N+](CC)Cc3cccc(S(=O)(=O)O)c3)C=C2)c2ccccc2S(=O)(=O)O)cc1", "value": "31 µM"}
{"compound": "CC(C)c1ccccc1SC1=C(O)CC(CCCCC(N)=O)(c2ccccc2)OC1=O", "setting": "pH 4.7", "value": "0.092 µM"}
{"compound": "COCCOCCOCCNC(=O)[C@@H](NC(=O)[C@H](Cc1ccccc1)C[C@H](O)[C@H](Cc1ccccc1)NC(=O)OC(C)(C)C)C(C)C", "value": "0.0001–0.01 µM"}
{"compound": "C/C=C(\\C)C(=O)O[C@H]1[C@H](O)C(C)(C)C[C@H]2C3=CC[C@@H]4[C@@]5(C)CC[C@H](O[C@@H]6O[C@H](C(=O)O)[C@@H](O[C@@H]7O[C@H](CO)[C@@H](O)[C@H](O)[C@H]7O)[C@H](O)[C@H]6O[C@@H]6O[C@H](CO)[C@@H](O)[C@H](O)[C@H]6O)[C@](C)(CO)[C@@H]5CC[C@@]4(C)[C@]3(C)C[C@@H](O)[C@]21COC(C)=O", "value": ">100 µM"}

Again, the opening 2 rows:

compound	setting	changes	value
CC(C)(C)OC(=O)N[C@@H](Cc1ccccc1)[C@H](O)CNC[C@@H](O)[C@H](Cc1ccccc1)NC(=O)C1NC(=O)CC1(C)C	pH 5.5		<10 µM
CC(C)CN(C[C@@H](O)[C@H](Cc1ccccc1)NC(=O)[C@H](CC(N)=O)NC(=O)c1ccc2ccccc2n1)C(=O)NC(C)(C)C		PR-V82A	0.0022 µM